Compound potency records, mixed from different reports. Data source: NIAID ChemDB in PubChem.

Common to all: tests on isolated targets; species: Hepatitis C virus

Rows are shuffled and stem from different studies. An empty or dashed field is not shown. Two numbers with a dash give a range or band. ICn is the concentration giving n% inhibition. Percent inhibition refers to the dose given; in toxicity tests it is the harm to the cells.

smiles	protein	measure	dose	value
NC(=O)c1cc(-c2ccc3cc(-c4nc5cc(C(=O)O)ccc5n4C4CCCCC4)ccc3n2)ccc1O	NS5B polymerase	inhibition	100 µM	98.32%
O=C(O)c1cnn2c(-c3ccc(Cl)cc3)cc(-c3ccccc3)nc12	RNA-dependent RNA polymerase	IC50		>10 µM
O=C(O)c1ccc2c(c1)nc(-c1ccc3nc(-c4ccccc4-c4ccc(Cl)cc4)ccc3c1)n2C1CCCCC1	NS5B polymerase	inhibition	100 µM	98.68%
Cc1nc(-c2ccc(S(=O)(=O)Nc3ccccc3-c3nc(C(=O)O)c(O)c(=O)[nH]3)s2)cs1	HCV polymerase	IC50		<100 µM
CC(C)N(C(=S)c1ccc(Cl)cc1Cl)c1cc(-c2ccccc2)sc1C(=O)O	NS3 ATPase	IC50		<5 µM
Cc1nc(C)c(COc2ccc(-c3cnc4c(-c5nn[nH]n5)cnn4c3C3CCCCC3)cc2)s1	RNA-dependent RNA polymerase	IC50		1–10 µM
O=C(NCc1ccc(Cl)cc1)Nc1ccsc1-c1nc(C(=O)O)c(O)c(=O)[nH]1	HCV polymerase	IC50		<25 µM
CNC(=O)c1c(-c2ccc(F)cc2)oc2cc(N(C)C)c(OC)cc12	Nonstructural protein 5B	IC50		≤0.5 µM
O=C(O)CCC(NC(=O)c1ccc2c(c1)nc(-c1ccc3nc(-c4ccccc4)cnc3c1)n2C1CCCCC1)C(=O)O	NS5B polymerase	inhibition	100 µM	97.38%
CCOCc1cc(-c2cc3oc(-c4ccc(F)cc4)c(C(=O)NC)c3cc2OC)no1	Nonstructural protein 5B	IC50		≤0.5 µM
O=C(O)c1sc(-c2ccc(F)cc2)cc1NS(=O)(=O)c1ccc(F)cc1F	NS3 ATPase	IC50		<5 µM
O=C(Nc1ccsc1-c1nc(C(=O)O)c(O)c(=O)[nH]1)c1cc(OCc2ccccc2)cs1	HCV polymerase	IC50		<25 µM
O=C(O)c1cc2nc(-c3ccc(Oc4ccccc4)cc3)cc(-c3cccc(OCc4ccccc4)c3)n2n1	RNA-dependent RNA polymerase	IC50		1–10 µM
O=C(NCCCc1ccccc1)Nc1cscc1-c1nc(C(=O)O)c(O)c(=O)[nH]1	HCV polymerase	IC50		<25 µM
O=S(=O)(Nc1cnn2c(C3CCCCC3)c(-c3ccc(OCc4ccccc4)cc3)cnc12)c1ccccc1	RNA-dependent RNA polymerase	IC50		>10 µM
CN(C)CCNC(=O)c1ccc(-c2ccccc2)c(-c2ccc3cc(-c4nc5cc(C(=O)O)ccc5n4C4CCCCC4)ccc3n2)c1	NS5B polymerase	inhibition	33 µM	98.26%
O=C(Nc1cscc1-c1nc(C(=O)O)c(O)c(=O)[nH]1)OCc1ccccc1	HCV polymerase	IC50		<25 µM
COc1ccc(-c2cc(N(C)C(=O)c3ccc(C)cc3)c(C(=O)O)s2)cc1	NS3 ATPase	IC50		5–20 µM
CNC(=O)c1c(-c2ccc(F)cc2)oc2cc(N(CS(C)(=O)=O)c3nccs3)c(OC(C)C)cc12	Nonstructural protein 5B	IC50		≤0.5 µM
O=C(O)c1ccc2c(c1)nc(-c1ccc3nc(-c4cccc(C(=O)N5CCCC5)c4)ccc3c1)n2C1CCCCC1	NS5B polymerase	inhibition	33 µM	97.76%
CN(C(=O)Cc1ccc(F)cc1)c1cc(-c2ccccc2)sc1C(=O)O	NS3 ATPase	IC50		<5 µM
CC(C)Cc1c(-c2ccc(OCc3ccccc3)cc2)cnc2c(-c3nn[nH]n3)cnn12	RNA-dependent RNA polymerase	IC50		1–10 µM
O=C(O)c1nc(-c2cccc(CS(=O)(=O)c3ccc(Cl)cc3)c2)[nH]c(=O)c1O	HCV polymerase	IC50		<100 µM
CCOC(=O)c1csc(CN(c2cc3oc(-c4ccc(F)cc4)c(C(=O)NC)c3cc2OC(C)C)S(C)(=O)=O)n1	Nonstructural protein 5B	IC50		≤0.5 µM
O=C(O)c1sc(-c2ccccc2)cc1NS(=O)(=O)c1ccc([N+](=O)[O-])cc1	NS3 ATPase	IC50		5–20 µM
CC[C@H](C)C(NC(=O)c1ccc2c(c1)nc(-c1ccc3nc(-c4ccccc4)cnc3c1)n2C1CCCCC1)C(=O)O	NS5B polymerase	inhibition	33 µM	94.51%
COc1ccc(-c2cc(-c3cccc(Cl)c3)nc3cc(C(=O)O)nn23)cc1Cl	RNA-dependent RNA polymerase	IC50		>10 µM
O=C(O)c1ccc2c(c1)nc(-c1ccc3nc(-c4ccc(-n5ccnc5)cc4)ccc3c1)n2C1CCCCC1	NS5B polymerase	inhibition	100 µM	97.41%
O=C(O)c1nc(-c2cccc(OCc3ccccc3C(F)(F)F)c2)[nH]c(=O)c1O	HCV polymerase	IC50		<100 µM
O=C(O)c1ccc2c(c1)nc(-c1ccc3nc(-c4cc(C(=O)N5CCCC5)ccc4-c4ccc([N+](=O)[O-])cc4)ccc3c1)n2C1CCCCC1	NS5B polymerase	inhibition	100 µM	101%
O=C(O)c1cc2nccc(-c3cccc(-c4cccc(Cl)c4)c3)n2n1	RNA-dependent RNA polymerase	IC50		>10 µM

The last 4 rows once more:

smiles | protein | measure | dose | value
O=C(O)c1ccc2c(c1)nc(-c1ccc3nc(-c4ccc(-n5ccnc5)cc4)ccc3c1)n2C1CCCCC1 | NS5B polymerase | inhibition | 100 µM | 97.41%
O=C(O)c1nc(-c2cccc(OCc3ccccc3C(F)(F)F)c2)[nH]c(=O)c1O | HCV polymerase | IC50 |  | <100 µM
O=C(O)c1ccc2c(c1)nc(-c1ccc3nc(-c4cc(C(=O)N5CCCC5)ccc4-c4ccc([N+](=O)[O-])cc4)ccc3c1)n2C1CCCCC1 | NS5B polymerase | inhibition | 100 µM | 101%
O=C(O)c1cc2nccc(-c3cccc(-c4cccc(Cl)c4)c3)n2n1 | RNA-dependent RNA polymerase | IC50 |  | >10 µM